Data published in paper PMC8593223, “Rapid Identification of Secondary Structure and Binding Site Residues in an Intrinsically Disordered Protein Segment” (Frontiers in Genetics, 2021).

Molecular target: MazE6 G59C, displayed on the yeast cell surface (M. tuberculosis, UniProt P9WJ87 1-82, G59 substituted to a non-charged cysteine residue)
Assay: flow cytometry on cells

B1: MazF6 toxin, (His)6MazF6(FLAG)3 (natural protein)
chain: MVISRAEIYWADLGPPSGSQPAKRRPVLVIQSDPYNASRLATVIAAVITSNTALAAMPGNVFLPATTTRLPRDSVVNVTAIVTLNKTDLTDRVGEVPASLMHEVDRGLRRVLDL
For B1, the “MFI^ratio (binding:expression MFI, normalised to WT)” value was 0.8.
